Pooled drug test results. Numbers come from NIAID ChemDB, via PubChem.

Common to all: tests in culture; species: Coxsackie virus; method: cytopathic effect; measure: EC50

Two numbers with a dash give a range or band.

SMILES	cells	strain or isolate	value
C=C(N=CC)c1nc(-c2cccc(OC)c2)n(C2O[C@H](CO)[C@@H](O)[C@H](O)[C@H]2O)n1	VERO	TYPE B4	>200 µg/mL
CCC1COC(c2ccc(OCCCCC(=O)c3ccc(C)s3)cc2)=N1	VERO	TYPE B2	5.93 µM
CC(Sc1ncnc2c1cnn2CCCCO)C(N)=O	VERO	TYPE B4	>400 µg/mL
Cc1ccc(C(=O)CCCCCCOc2ccc(C3=NCC(C)O3)cc2)s1	VERO	TYPE B5	25.97 µM
Nc1ncnc2c1ncn2[C@@H]1C[C@H](CO)[C@@H](O)[C@H]1O	VERO	TYPE B4	2 µg/mL
CS(=O)(=O)c1ccc(Cc2ccc(Cl)c(Cl)c2)nc1	HeLa	TYPE B3	>10 µg/mL
CC1(C)[C@@H](CCO)C[C@H]1n1nnc2c(N)ncnc21	HeLa	TYPE B4	>400 µg/mL
Cc1nc(N2CCCC2)c([N+](=O)[O-])c(N2CC[N+]3(CC2)CC[N+]2(CCN(c4nc(C)nc(N5CCCC5)c4[N+](=O)[O-])CC2)CC3)n1	HeLa	B3	>70 µg/mL
CC(Sc1ncnc2c1cnn2COCCO)C(N)=O	HeLa	TYPE B4	>400 µg/mL
Nc1nccc2c1ncn2[C@@H]1C[C@H](CO)[C@@H](O)[C@H]1O	VERO	Strain B4	>400 µg/mL
C=C(N=CC)c1nc(-c2ccccc2)n([C@@H]2O[C@H](CO)[C@@H](O)[C@H]2O)n1	VERO	TYPE B4	>100 µg/mL
Cc1cc(-c2noc(C(F)(F)F)n2)cc(C)c1OCCCc1ccc(C(C)(F)F)nn1	HeLa		0.033–0.659 µg/mL
Cc1ccc(C(=O)CCCCCCOc2ccc(C3=NCCO3)cc2Cl)s1	VERO	TYPE B2	1.52 µM
NC(=O)CSc1ncnc2c1cnn2COCC(O)CO	VERO	TYPE B4	>400 µg/mL
CS(=O)(=O)c1ccc(Oc2ccc(C(=O)c3ccccc3)cc2)nc1	HeLa	A7	0.3 µg/mL
Nc1ncnc2c1ncn2[C@H]1C[C@H](O)[C@@H](/C=N/O)O1	VERO	Strain B4	>100 µg/mL
CC(=O)Oc1ccc(CCCOc2cc(C)c(-c3noc(C)n3)c(C)c2)nn1	HeLa		0.033–0.659 µg/mL
C1CN(CC2CO2)CC[N+]2(C1)CC[N+]1(CCCN(CC3CO3)CC1)CC2	HeLa	B3	>70 µg/mL
CC1(C)[C@@H](CCO)C[C@H]1n1cnc2c(=O)[nH]cnc21	VERO	TYPE B4	>400 µg/mL
Cc1ccc(C(=O)CCCCCCOc2ccc(C3=N[C@H](C)CO3)cc2)s1	VERO	TYPE B5	>25.97 µM
CC1(C)[C@@H](CO)CC[C@@]1(C)Cn1nnc2c(Cl)ncnc21	VERO	TYPE B4	>400 µg/mL
Cc1cn([C@H]2C/C(=N\O)[C@@H](CO)O2)c(=O)[nH]c1=O	HeLa		>200 µg/mL
NC(=O)CSc1ncnc2c1cnn2COCCO	HeLa	TYPE B4	>400 µg/mL
COc1ccc(CNc2ccc(S(C)(=O)=O)cn2)cc1OC	HeLa	TYPE A21	>10 µg/mL
CC1(C)[C@@H](CO)CC[C@@]1(C)Cn1cnc2c(N)ncnc21	VERO	TYPE B4	>400 µg/mL
CCN(CC)C(=S)Sc1ncnc(N2CC[N+]3(CC2)CC[N+]2(CCN(c4ncnc(SC(=S)N(CC)CC)c4[N+](=O)[O-])CC2)CC3)c1[N+](=O)[O-]	HeLa	B3	>70 µg/mL
CC(=O)c1ccc(CCCOc2cc(C)c(-c3noc(C(F)F)n3)c(C)c2)nn1	HeLa		0.033–0.659 µg/mL
CS(=O)(=O)c1ccc(Cc2ccc(S(C)(=O)=O)cn2)cc1	HeLa	TYPE A21	>10 µg/mL
CC=NC(=N)c1nc(-c2ccc(OC)cc2)n(Cc2ccccc2)n1	HeLa	TYPE B4	>10 µg/mL
Nc1ncnc2c1ncn2[C@@H]1C[C@H](COP(=O)(O)O)[C@@H](O)[C@H]1O	VERO	TYPE B4	>200 µg/mL
CCS(=O)(=O)c1ccc(Oc2ccc(C(=O)c3ccccc3)cc2)nc1	HeLa	TYPE A21	1.3 µg/mL
CON=C[C@H]1O[C@@H](n2cnc3c(N)ncnc32)[C@H](O)[C@@H]1O	VERO	Strain B4	>100 µg/mL
CS(=O)(=O)c1ccc(Cc2ccc(Cl)cc2)nc1	HeLa	TYPE A21	2.5 µg/mL
Nc1ncnc2c1ncn2[C@@H]1O[C@H](C(O)O)[C@@H](O)[C@@H]1O	VERO	Strain B4	>200 µg/mL
CC1(C)[C@@H](CCO)C[C@H]1n1cnc2c(N)nc(N)nc21	VERO	TYPE B4	>400 µg/mL
Cc1cnnc(CCCOc2cc(C)c(-c3noc(C)n3)c(C)c2)c1	HeLa		0.033–0.659 µg/mL
Nc1ncnc2c1ncn2[C@@H]1O[C@H](C=NOCc2ccccc2)[C@@H](O)[C@H]1O	VERO	Strain B4	>100 µg/mL
CCCc1nc(-c2c(C)cc(OCCCc3ccc(CO)nn3)cc2C)no1	HeLa		0.033–0.659 µg/mL
O=C(NCCCl)N1CC[N+]2(CC1)CC[N+]1(CCN(C(=O)NCCCl)CC1)CC2	HeLa	B3	>70 µg/mL
CC=NC(=N)c1nc(-c2ccccc2)n(COCCO)n1	VERO	TYPE B4	>200 µg/mL
Cc1ccc(CCCCCOc2ccc(-c3noc(C(F)F)n3)c(C)c2)nn1	HeLa		0.033–0.659 µg/mL
CC1(C)[C@@H](CO)CC[C@@]1(C)Cn1nnc2c(=O)[nH]cnc21	HeLa	TYPE B4	>400 µg/mL
CC1(C)[C@@H](CCO)C[C@H]1n1cnc2c(N)ncnc21	HeLa	TYPE B4	150 µg/mL
CC1(C)[C@@H](CO)CC[C@@]1(C)Cn1nnc2c(N)ncnc21	VERO	TYPE B4	>400 µg/mL
CCOC(=O)c1ccc(OCCCCC(=O)c2ccc(C)s2)cc1	VERO	TYPE B5	>26.72 µM
Cc1nc(-c2cc(C)c(OCCCc3ccc(C=O)o3)c(C)c2)no1	HeLa		0.033–0.659 µg/mL
Cc1ccc(C(=O)CCCCOc2ccc(C3=N[C@@H](C)CO3)cc2)s1	VERO	TYPE B2	4.76 µM
CS(=O)(=O)c1ccc(Cc2ccc(N)cc2)nc1	HeLa	TYPE A21	>10 µg/mL
O=[N+]([O-])c1c(Cl)nc(C(F)(F)F)nc1N1CC[N+]2(CC1)CC[N+]1(CCN(c3nc(C(F)(F)F)nc(Cl)c3[N+](=O)[O-])CC1)CC2	HeLa	B3	>70 µg/mL
CC=NC(=N)c1nc(-c2ccc(C)cc2)n(COCCO)n1	VERO	TYPE B4	>100 µg/mL
CCS(=O)(=O)c1ccc(NCc2ccc(Cl)c(Cl)c2)nc1	HeLa	TYPE A21	>10 µg/mL

6 of the rows above, restated:

SMILES	cells	strain or isolate	value
Nc1ncnc2c1ncn2[C@@H]1O[C@H](C(O)O)[C@@H](O)[C@@H]1O	VERO	Strain B4	>200 µg/mL
CC1(C)[C@@H](CCO)C[C@H]1n1cnc2c(=O)[nH]cnc21	VERO	TYPE B4	>400 µg/mL
CON=C[C@H]1O[C@@H](n2cnc3c(N)ncnc32)[C@H](O)[C@@H]1O	VERO	Strain B4	>100 µg/mL
Nc1ncnc2c1ncn2[C@@H]1C[C@H](CO)[C@@H](O)[C@H]1O	VERO	TYPE B4	2 µg/mL
CC1(C)[C@@H](CO)CC[C@@]1(C)Cn1cnc2c(N)ncnc21	VERO	TYPE B4	>400 µg/mL
CS(=O)(=O)c1ccc(Cc2ccc(S(C)(=O)=O)cn2)cc1	HeLa	TYPE A21	>10 µg/mL

Conditions beyond the fields shown may differ between rows. An empty or dashed field is not shown. ECn is the concentration giving n% inhibition of infection, replication or growth.